Assay results as given in US20240043505A1 (UNIVERSITY OF PITTSBURGH OF THE COMMONWEALTH SYSTEM OF …, published 2024).

Molecular target: SARS-CoV-2 Munich strain spike glycoprotein on authentic virus (SARS-CoV-2)
Assay: cell-based or functional assay

B1: Nb20 (VHH)
VHH: QVQLVESGGGLVQAGGSLRLSCAVSGAGAHRVGWFRRAPGKEREFVAAIGASGGMTNYLDSVKGRFTISRDNAKNTIYLQMNSLKPQDTAVYYCAARDIETAEYIYWGQGTQVTVSS
- Authentic virus PRNT IC50: 0.048 nM
